Reference: PubChem BioAssay AID624099 (ICCB-Longwood, 2012)
The deposit covers about 21,000 reagents; below is an unselected part. Over the whole deposit, 497 (2.4%) are marked active. 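Higher z means weaker E2 silencing; only reporter increases were scored, and knock-downs that hurt cell survival may mask genuine repressor factors.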 Reagent sequences are not shown.

Aim: 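Knock-downs relieving repression by E2 of an HPV18 LCR luciferase reporter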 (primary screen)
System: human C33A cervical carcinoma cells (HPV-negative) stably expressing BPV1 E2 and an HPV18 LCR luciferase reporter
Reagents: siRNA pool against human genes, 40 nM
Duration: 72 h
Measured: 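Per-well luciferase luminescence, z-scored on each plate against the plate mean and SD with control wells left out, then averaged across three replicate plates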
Direction: mean z-score and z-score: higher = stronger reporter signal, weaker E2 silencing
Active means: 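Hit if mean z-score reaches 2 and two or more of three replicate z-scores also reach 2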

Gene	PubChem SID	mean z-score	z-score, replicate A	z-score, replicate B	z-score, replicate C	Outcome
HPS5	SID134321400	0.7	1.16	0.41	0.55	inactive
TIMELESS	SID134323273	0.29	0.45	0.39	0.02	inactive
TP53I3	SID134314544	-0.36	-0.21	-0.42	-0.46	inactive
TFCP2L1	SID134324088	0.21	0.6	0.56	-0.54	inactive
LOC400840 (retired record)	SID134329046	0.14	0.02	0.19	0.21	inactive
ALOXE3	SID134313859	0.17	0.42	-0.01	0.1	inactive
PRKAA1	SID56478957	-0.3	-0.61	-0.12	-0.18	inactive
CLNK	SID134329363	0.79	0.67	0.5	1.19	inactive
LOC283816 (retired record)	SID134325414	-0.09	-0.02	-0.52	0.26	inactive
SP110	SID134316190	-0.91	-1.77	0.48	-1.43	inactive
LOC389550 (retired record)	SID134327896	2.86	1.99	3.3	3.28	active
ASGR1	SID134317499	1.23	1.22	1.38	1.08	inactive
SCPEP1	SID134311452	0.27	-0.34	0.26	0.88	inactive
NPAS2	SID134313706	0.66	0.38	0.94	0.67	inactive
LOC402527 (retired record)	SID134327874	0.24	0.41	0.31	0.01	inactive
PTX3	SID134321676	0.29	0.28	0.42	0.17	inactive
NLRP2	SID134323981	-0.29	-0.09	-0.27	-0.51	inactive
SP4	SID134311883	-0.46	-0.42	-0.65	-0.32	inactive
FRMD6	SID134320427	-0.07	0.23	-0.06	-0.38	inactive
SFTPA2B (retired record)	SID134323505	1.03	1.17	0.88	1.03	inactive
LSM14A	SID134318116	0.14	0.22	-0.13	0.34	inactive
DNAH11	SID134316880	0.48	0.77	0.17	0.49	inactive
IRF5	SID134316027	-0.87	-0.87	-0.79	-0.94	inactive
IFIT5	SID134323841	-0.02	0.02	0.02	-0.11	inactive
HEATR5A	SID134325212	1.17	1.22	1.06	1.24	inactive
HEATR5A	SID134328479	-0.43	-0.26	-0.73	-0.31	inactive
GABARAPL1	SID134318821	-0.68	-1.01	-0.42	-0.61	inactive
MORF4	SID134323614	1.07	0.94	1.31	0.96	inactive
CDC42EP4	SID134317718	0.51	0.38	0.48	0.68	inactive
SYN1	SID134316638	2.13	2.2	2.26	1.94	active
MESD	SID134328568	1.06	1.22	1.28	0.69	inactive
YBX1	SID134314819	-1.1	-1.02	-1.34	-0.93	inactive
HAGHL	SID134314358	-0.6	-0.63	-0.68	-0.5	inactive
ZNF768	SID134320145	-0.18	-0.43	-0.14	0.03	inactive
CCDC85C	SID134317948	1.88	1.75	2.13	1.77	inactive
CCDC85C	SID134321810	0.44	0.72	0.51	0.1	inactive
KLK9	SID134311347	1	0.74	1.15	1.11	inactive
DGKQ	SID56478983	-1.14	-1.23	-1.14	-1.06	inactive
CES1P1	SID134314346	-0.35	-0.45	-0.54	-0.07	inactive
CATSPERG	SID134318197	-1.38	-1.26	-1.51	-1.38	inactive
G0S2	SID134319796	1.69	1.79	1.88	1.41	inactive
FPR1	SID134310007	0.13	-0.05	0.3	0.15	inactive
LIAS	SID134314674	-1.54	-1.57	-1.47	-1.58	inactive
NOTUM	SID134322206	-1.46	-1.97	-1.64	-0.78	inactive
TSR2	SID134319260	0.35	0.59	-0.18	0.62	inactive
KCTD14	SID134318424	-0.97	-0.81	-0.95	-1.15	inactive
IRX6	SID134325428	0.16	-0.01	0.36	0.12	inactive
BAG3	SID134316266	-0.83	-1.52	-0.29	-0.68	inactive
MYCLP1	SID134315090	-0.04	-0.19	-0.05	0.12	inactive
FOXO4	SID134309808	0.19	0.19	0.36	0.03	inactive
UCN3	SID134319241	0.12	0.24	0.11	0	inactive
MALSU1	SID134319645	0.36	0.34	0.51	0.23	inactive
APOL6	SID134317657	1.35	1.57	0.8	1.66	inactive
LPP	SID134323760	0.81	0.94	0.38	1.11	inactive
RNASET2	SID134314045	-0.62	-0.69	-0.65	-0.51	inactive
GPATCH4	SID134317255	0.64	0.76	0.47	0.7	inactive
CCN3	SID134315027	1.82	1.85	1.8	1.82	inactive

Laid out differently: entries from further up.
{"Gene":"SCPEP1","PubChem SID":"SID134311452","mean z-score":0.27,"z-score, replicate A":-0.34,"z-score, replicate B":0.26,"z-score, replicate C":0.88,"Outcome":"inactive"}
{"Gene":"NPAS2","PubChem SID":"SID134313706","mean z-score":0.66,"z-score, replicate A":0.38,"z-score, replicate B":0.94,"z-score, replicate C":0.67,"Outcome":"inactive"}
{"Gene":"LOC402527 (retired record)","PubChem SID":"SID134327874","mean z-score":0.24,"z-score, replicate A":0.41,"z-score, replicate B":0.31,"z-score, replicate C":0.01,"Outcome":"inactive"}
{"Gene":"PTX3","PubChem SID":"SID134321676","mean z-score":0.29,"z-score, replicate A":0.28,"z-score, replicate B":0.42,"z-score, replicate C":0.17,"Outcome":"inactive"}
{"Gene":"NLRP2","PubChem SID":"SID134323981","mean z-score":-0.29,"z-score, replicate A":-0.09,"z-score, replicate B":-0.27,"z-score, replicate C":-0.51,"Outcome":"inactive"}
{"Gene":"SP4","PubChem SID":"SID134311883","mean z-score":-0.46,"z-score, replicate A":-0.42,"z-score, replicate B":-0.65,"z-score, replicate C":-0.32,"Outcome":"inactive"}
{"Gene":"FRMD6","PubChem SID":"SID134320427","mean z-score":-0.07,"z-score, replicate A":0.23,"z-score, replicate B":-0.06,"z-score, replicate C":-0.38,"Outcome":"inactive"}
{"Gene":"SFTPA2B (retired record)","PubChem SID":"SID134323505","mean z-score":1.03,"z-score, replicate A":1.17,"z-score, replicate B":0.88,"z-score, replicate C":1.03,"Outcome":"inactive"}
